Anti-infective test results gathered from many reports (values: NIAID ChemDB through PubChem).

Common to all: whole-cell or culture tests; species: Herpes simplex virus 2; cell line: HEL; method: cytopathic effect; read-out: EC50

Rows are shuffled and stem from different studies. ECn is the concentration giving n% inhibition of infection, replication or growth.

structure,strain,value
CCCCCCCCCCC#Cc1c[nH]c(=O)[nH]c1=O,G,>40 µM
CC(C)NS(=O)(=O)c1ccccc1C(=O)NNC(=O)c1ccc(Cl)cc1,G,>100 µM
O=c1c2ncn(COCCO)c2nc2[nH]c(-c3ccccc3)c(Cc3ccc(F)cc3)n12,196,>16 µg/mL
Nc1nc2c(ncn2COC(CO)CO)c(=O)[nH]1,HS-44 (TK-),57 µM
COc1ccc(/C=N/NC(=O)c2ccccc2S(=O)(=O)NC(C)C)cc1,G,>100 µM
O=c1[nH]c(=O)n([C@H]2C[C@H](O)[C@@H](CO)O2)cc1/C=C/Br,G,>300 µM
O=c1c2ncn(COCCO)c2nc2[nH]c(-c3ccccc3)c(Cc3ccccc3)n12,LYONS,>16 µg/mL
CCOC(=O)C1Sc2nnc(-c3cn(-c4ccccc4)nc3-c3ccccc3)n2NC1=O,G,>80 µg/mL
CC(=O)NS(=O)(=O)c1cc(C)c(NC(=O)CN2C(=O)c3ccccc3S2(=O)=O)cc1C,G,>100 µM
CCCCCCCCC#Cc1cn(S(=O)(=O)c2ccc(C)cc2)c(=O)[nH]c1=O,G,>200 µM
O=c1[nH]n2c(-c3cn(-c4ccccc4)nc3-c3ccccc3)nnc2sc1=O,G,80 µg/mL
Nc1nc2c(ncn2COCCO)c(=O)[nH]1,G,0.4 µM
O=c1[nH]n2c(-c3cn(-c4ccccc4)nc3-c3ccccc3)nnc2s1,G,>16 µg/mL
Cc1c(-c2ccc(C(F)(F)F)cc2)[nH]c2nc3c(ncn3COCCO)c(=O)n12,G,9.6 µg/mL
CCCCc1cc2cnc(=O)[nH]c2o1,G,>200 µM
O=c1c2ncn(COCCO)c2nc2[nH]c(-c3ccc(C(F)(F)F)cc3)cn12,LYONS,>16 µg/mL
CCCCCCCCCCC#Cc1cn(S(=O)(=O)c2ccc(C)cc2)c(=O)[nH]c1=O,G,>200 µM
CCCCCCCC/C=C/CCCCCCCC(=O)O,G,>100 µM
O=C1CSc2nnc(-c3cn(-c4ccccc4)nc3-c3ccccc3)n2N1,G,>16 µg/mL
CCCCCCCCc1cc2cnc(=O)[nH]c2o1,G,>200 µM

A second listing of 2 rows from above:

structure,strain,value
O=c1c2ncn(COCCO)c2nc2[nH]c(-c3ccccc3)c(Cc3ccc(F)cc3)n12,196,>16 µg/mL
Cc1c(-c2ccc(C(F)(F)F)cc2)[nH]c2nc3c(ncn3COCCO)c(=O)n12,G,9.6 µg/mL